Source: patent US20240254204A1 (published 2024)

B1: Antibody 13 (SS6V13-F1) (antibody, V domains shown)
VH: QVQLQESGPGLVKPSETLSLTCSVSGVSILGSYWGWIRQPPGTGLQWIGYIYFSENTNYNPSLQSRVTMSLDTSKNLLSLKLSSVTAADTAVYYCARGGGYLETGPFDSWGQGTLVTVSS
VL: DIVMTQSPLSLPVTPGEPASISCRSSQGLVQSNGYNYLAWYLQKPGQSPQLLIYLGSNRASGVPDRFSGSGSGTDFTLKISRVEAEDVGVYYCMQGLQTPGTFGQGTRLEIK
B2: Antibody 11 (SS6V11-E7) (antibody, V domains shown)
VH: QVQLQESGPGLVKPSETLSLTCTVSGGFIGPHYWSWVRQPPGKGLEWIGYIYISGSTNYNPSLKSRLTISVDMSKSQFSLTLSSATAADTAVYYCARGGGYLETGPFEYWGQGTLVTVSS
VL: B1 VL with G28S, V30L, S32N, G56S, N58T, G96S, T99I

Target: SARS-COV-2 B.1.1.7 RBD (SARS-CoV-2 B.1.1.7 (Alpha))
Assay: multiplex sVNT RBD-ACE2 blocking

Binder | IC50 [µg/mL]
B1 | 0.092
B2 | 0.084

Changes are numbered by the printed parent chain.
